A mixed list of measured activities; the numbers were collected in NIAID ChemDB.

Shared fields: toxicity to cultured cells; cells: HEP-2; measure: CC50

Rows are shuffled and stem from different studies. CCn is the concentration with n% toxicity to the cells.

O=C1Nc2ccccc2C(c2ccccc2)(c2cccc(Cl)c2)NC1NC(=O)N1CCCCC1 ; value: 2 µM
CCCSc1nsc(-c2ccccc2)c1C#N ; value: 200 µg/mL
CC(C)CCn1c(Cn2c(=O)n(Cc3ccc(P(=O)(O)O)cc3)c3ccccc32)nc2ccccc21 ; value: 81 µM
O=C(Nc1c(Cl)cccc1Cl)NC1N=C(c2ccccc2)c2ccccc2NC1=O ; value: 5 µM
C/C=C1\[C@H](OC2O[C@H](CO)[C@@H](O)[C@H](O)[C@H]2O)OC=C(C(=O)OC)[C@H]1CC(=O)OCC1O[C@H](OCCc2ccc(O)c(O)c2)[C@@H](O)[C@H](O)[C@H]1O ; value: 145.8 µM
O=C1Nc2ccc(Cl)cc2C(c2ccccc2)=NC1NC(=O)N1CCCCC1 ; value: 5 µM
C/C=C1\[C@H](OC2O[C@H](CO)[C@@H](O)[C@H](O)[C@H]2O)OC=C(C(=O)O)[C@H]1CC(=O)OCCc1ccc(O)cc1 ; value: 375 µM
[N-]=C=Nc1nncs1 ; value: >1000 µg/mL
CC(=O)NC[C@H]1CN(c2ccc(N3CCOCC3)c(F)c2)C(=O)O1 ; value: >100 µM
CN(C)c1nsc(-c2ccccc2)c1C#N ; value: 15 µg/mL
O=C(NC1NC(c2ccccc2)(c2cccc(Cl)c2)c2ccccc2NC1=O)C1CCCCC1 ; value: 2 µM
COc1ccc(-c2coc3cc(O[C@@H]4O[C@H](CO)[C@@H](O)[C@H](O)[C@H]4O)ccc3c2=O)cc1O ; value: 177 µg/mL
N#Cc1c(SCCO)nsc1-c1ccccc1 ; value: 5 µg/mL
C=C(C)n1c(=O)n(Cc2nc3ccccc3n2CCC(=N)N=[N+]=[N-])c2ccccc21 ; value: >294 µM
CCSc1nsc(-c2ccccc2)c1C#N ; value: 100 µg/mL
O=C(NC1N=C(c2ccccc2)c2ccccc2NC1=O)c1ccccc1F ; value: 9.5 µM
CCCSc1nsc(-c2ccccc2)c1C(N)=O ; value: 300 µg/mL
C/C=C1\[C@H](OC2O[C@H](CO)[C@@H](O)[C@H](O)[C@H]2O)OC=C(C(=O)O)[C@H]1CC(=O)OCC(OCC)c1ccc(O)c(O)c1 ; value: 250 µM
CSc1nsc(-c2ccccc2)c1C(N)=O ; value: 250 µg/mL
C=C(C)n1c(=O)n(Cc2nc3ccccc3n2CCCC(=N)N=[N+]=[N-])c2ccccc21 ; value: >0.33 µM
COc1cccc(C2(c3ccccc3)NC(NC(=O)c3cccs3)C(=O)Nc3ccccc32)c1 ; value: 4 µM
CCCSc1nsc(-c2ccccc2)c1C(=O)O ; value: 500 µg/mL
Nc1nccc2c1ncn2[C@@H]1C[C@H](CO)[C@@H](O)[C@H]1O ; value: 750 µg/mL
CSc1nsc(-c2ccccc2)c1C#N ; value: 20 µg/mL
NC(=O)c1nc(F)c[nH]c1=O ; value: >1000 µg/mL

For reference, 4 entries again:

structure	value
CCCSc1nsc(-c2ccccc2)c1C(N)=O	300 µg/mL
NC(=O)c1nc(F)c[nH]c1=O	>1000 µg/mL
CC(=O)NC[C@H]1CN(c2ccc(N3CCOCC3)c(F)c2)C(=O)O1	>100 µM
O=C1Nc2ccccc2C(c2ccccc2)(c2cccc(Cl)c2)NC1NC(=O)N1CCCCC1	2 µM